In article PMC13142116 (Journal of Structural Biology: X, 2026):

Test: peptide synthesis
Details: conjugation step

In the case of “D-Tyr-Ser-Thr-Gln-Ile-Ser-Arg-Gly-Phe-Thr-Arg-Asp-Ser-Arg-Gly-Cys-Gly-Ser-Gly-Ser-Gly-Ser-Lys-DOTA cyclized between the cysteine and the chloroacetic acid”, the “purity (crude or final not stated)” value is reported as “exceeding 99%”.
